Read-outs that look alike come from different tables or passages of the source.
What was measured:
[1] = target: wild-type HCV genotype 1b NS5B protein (Hepatitis C virus genotype 1b (isolate Con1) (HCV), UniProt Q9WMX2); experiment: HCV polymerase enzyme assay, wild-type; type: biochemical
Description: (§1) Test compounds in the form of nucleoside triphosphates were examined for inhibitory activity against purified HCV polymerase in a standard assay. Bacterial expression constructs encoding the approximately 65 kDa HCV genotype 1b NS5B protein were used to generate recombinant HCV polymerases (with a deletion of the 21 carboxy terminal amino acids). Both the wild-type genotype 1b protein and protein containing the S282T mutation were expressed and purified for use in the enzymatic activity assay.
(§2) The enzymatic activity assay measured the inhibitory effect of increasing concentrations of test compound on the incorporation of α-[^33P]-labeled nucleotide into trichloroacetic acid-precipitable material. Recombinant polymerase and synthetic RNA template were combined in reaction buffer containing ribonucleoside triphosphates, α-[^33P]-labeled nucleotide and eight concentrations of test compound in three-fold dilutions. Reactions were incubated for two hours at 30° C.
(§3) Reactions were terminated by the addition of ice-cold trichloroacetic acid and sodium pyrophosphate to promote precipitation of newly-synthesized ribonucleic acid. Precipitable material from the reactions was collected by filtration onto 96-well filter plates, washed extensively with water, and quantified by liquid scintillation.
(§4) The inhibitory activity of test compounds was determined by fitting results to dose-response curves using XLfit software.

[2] = target: HCV genotype 1b NS5B protein containing the S282T mutation (Hepatitis C virus genotype 1b (isolate Con1) (HCV), UniProt Q9WMX2, S2701T); experiment: HCV polymerase enzyme assay, S282T mutant; type: biochemical; settings: read-out: S282T IC50, nucleoside triphosphate form, recombinant HCV genotype 1b NS5B, tested form: triethylammonium (3 Et3NH+)
Description: as §1, §2, §3, §4

[3] = read-out: Wild-Type IC50, nucleoside triphosphate form, recombinant HCV genotype 1b NS5B, tested form: triethylammonium (3 Et3NH+)

Row | SMILES | IC50 [1, 3] [nM] | other results
1 | O=c1ccn([C@@H]2O[C@H](COP(=O)(O)OP(=O)(O)OP(=O)(O)O)[C@@H](CO)[C@H]2F)c(=O)[nH]1 | 1000 to 10000 | 
2 | Nc1nc2c(ncn2[C@H]2C[C@H](CO)[C@@H](COP(=O)(O)OP(=O)(O)OP(=O)(O)O)O2)c(=O)[nH]1 | > 10000 | 
3 | O=c1ccn([C@@H]2O[C@H](COP(=O)(O)O)[C@@H](CO)[C@H]2O)c(=O)[nH]1 |  | IC50 ([1]; read-out: Wild-Type IC50, nucleoside triphosphate form, recombinant HCV genotype 1b NS5B, tested form: triethylammonium (Et3NH+)): > 10000 nM
4 | O=c1ccn([C@@H]2O[C@H](COP(=O)(O)OP(=O)(O)OP(=O)(O)O)[C@@H](CO)[C@H]2O)c(=O)[nH]1 | < 250 | IC50 [2]: < 250 nM
5 | O=c1ccn([C@@H]2O[C@H](COP(=O)(O)OP(=O)(O)O)[C@@H](CO)[C@H]2O)c(=O)[nH]1 |  | IC50 ([1]; read-out: Wild-Type IC50, nucleoside triphosphate form, recombinant HCV genotype 1b NS5B, tested form: triethylammonium (2 Et3NH+)): 1000 to 10000 nM
6 | Nc1nc(N)c2ncn([C@@H]3O[C@H](COP(=O)(O)OP(=O)(O)OP(=O)(O)O)[C@@H](CO)[C@H]3O)c2n1 | 250 to 1000 | IC50 [2]: < 250 nM
7 | O=c1ccn([C@H]2C[C@H](CO)[C@@H](COP(=O)(O)OP(=O)(O)OP(=O)(O)O)O2)c(=O)[nH]1 | > 10000 | 
8 | O=c1ccn([C@@H]2O[C@H](COP(=O)(O)OP(=O)(O)OP(=O)(O)O)[C@@H](CF)[C@H]2O)c(=O)[nH]1 | < 250 | IC50 [2]: < 250 nM
9 | Nc1nc2c(nnn2[C@@H]2O[C@H](COP(=O)(O)OP(=O)(O)OP(=O)(O)O)[C@@H](CO)[C@H]2O)c(=O)[nH]1 | > 10000 | 
10 | Cc1cn([C@@H]2O[C@H](COP(=O)(O)OP(=O)(O)OP(=O)(O)O)[C@@H](CO)[C@H]2O)c(=O)[nH]c1=O | 250 to 1000 | 
11 | O=c1ccn([C@@H]2O[C@H](COP(=O)(O)OP(=O)(O)OP(=O)(O)O)[C@@H](C(F)F)[C@H]2O)c(=O)[nH]1 | 1000 to 10000 | 

From patent US10202411B2, “3′-substituted methyl or alkynyl nucleosides nucleotides for the treatment of HCV” (priority 2014, dated 2019)
